Compound potency records, mixed from different reports. Data source: NIAID ChemDB in PubChem.

All rows: tests in culture; organism: Rhinovirus; method: cytopathic effect; endpoint: EC50

Rows are shuffled and stem from different studies.

{"compound": "CCOc1cc(OC)ccc1-c1cc(N(CC)CC)no1", "cells": "HeLa", "strain": "Serotype 45 (group A)", "result": ">90 µM"}
{"compound": "CSc1nsc(-c2ccccc2)c1C#N", "cells": "HELA-OHIO", "strain": "Serotype 51 (group B)", "result": ">80 µM"}
{"compound": "CCCCc1nc2ccc(OCCC3CCN(c4ccc(C)nn4)CC3)cc2o1", "cells": "MRC-5", "strain": "Serotype 14", "result": "0.082 µg/mL"}
{"compound": "Cc1cc(OCCCc2ccc(Br)nn2)cc(C)c1-c1noc(C(F)F)n1", "cells": "HeLa", "strain": "serotypes 3 4 5 9 16 18 38 66 75 67", "result": "0.02 µg/mL"}
{"compound": "CCc1nc2ccc(OCCC3CCN(c4ccc(C)nn4)CC3)cc2o1", "cells": "MRC-5", "strain": "Serotype 14", "result": "0.13 µg/mL"}
{"compound": "COc1ccc(-c2cc(N3CCCC3)no2)c(O)c1", "cells": "HeLa", "strain": "Serotype 15 (group B)", "result": ">384 µM"}
{"compound": "CCS(=O)(=O)c1cccnc1Oc1ccc(C(=O)c2ccccc2)cc1", "cells": "HeLa", "strain": "TYPE 2", "result": ">10 µg/mL"}
{"compound": "Cc1c(-c2ccccc2)n(-c2ccc(F)cc2)c2ccc(C(C)C)cc2c1=O", "cells": "HELA-OHIO", "strain": "36/342H", "result": "0.13 µg/mL"}
{"compound": "CS(=O)(=O)c1ccc(Cc2ccc(Cl)c(Cl)c2)nc1", "cells": "HeLa", "strain": "TYPE 89", "result": "1.3 µg/mL"}
{"compound": "CCN(CC)c1cc(-c2ccc(OC)cc2OC)on1", "cells": "HeLa", "strain": "Serotype 59 (group B)", "result": "91 µM"}
{"compound": "CCOc1nc2ccc(OCCC3CCN(c4cc(C)c(Cl)nn4)CC3)cc2o1", "cells": "MRC-5", "strain": "Serotype 2", "result": "0.012 µg/mL"}
{"compound": "CS(=O)(=O)c1ccc(NCc2ccc(Cl)c(Cl)c2)nc1", "cells": "HeLa", "strain": "TYPE 1A", "result": "3.1 µg/mL"}
{"compound": "CSc1nsc(-c2ccc(OCCOc3ccc([N+](=O)[O-])cc3)cc2)c1C#N", "cells": "HELA-OHIO", "strain": "Serotype 42 (group A)", "result": ">2 µM"}
{"compound": "CCOc1cc(CCCOc2c(C)cc(-c3noc(C)n3)cc2C)on1", "cells": "HeLa", "strain": "Serotype 89", "result": "0.003 µg/mL"}
{"compound": "CSc1nsc(-c2ccc(OCCCOc3ccc([N+](=O)[O-])cc3)cc2)c1C#N", "cells": "HELA-OHIO", "strain": "Serotype 15 (group B)", "result": ">1 µM"}
{"compound": "Cc1nc(-c2cc(C)c(OCCCc3ccc(C(F)F)nn3)c(C)c2)no1", "cells": "HeLa", "strain": "serotypes 3 4 5 9 16 18 38 66 75 67", "result": "0.074 µg/mL"}
{"compound": "C#CCOc1cc(OC)ccc1-c1cc(N(CC)CC)no1", "cells": "HeLa", "strain": "Serotype 59 (group B)", "result": ">40 µM"}
{"compound": "CSc1nsc(-c2ccc(OCCCc3ccccc3)cc2)c1C#N", "cells": "HELA-OHIO", "strain": "Serotype 29 (group B)", "result": ">20 µM"}
{"compound": "CCOc1nc2ccc(OCCC3CCN(c4cc(C)c(C)nn4)CC3)cc2o1", "cells": "MRC-5", "strain": "Serotype 14", "result": "0.04 µg/mL"}
{"compound": "CSc1nsc(-c2ccc(OCCCCOc3ccc([N+](=O)[O-])cc3)cc2)c1C#N", "cells": "HELA-OHIO", "strain": "Serotype 15 (group B)", "result": ">0.5 µM"}
{"compound": "Cc1nc(-c2cc(C)c(OCCCc3cc(C4CC4)no3)c(C)c2)no1", "cells": "HeLa", "strain": "Serotype 22", "result": "0.011 µg/mL"}
{"compound": "CCS(=O)(=O)c1ccc(Cc2ccc(Cl)c(Cl)c2)nc1C(N)=O", "cells": "HeLa", "strain": "TYPE 1A", "result": "1.3 µg/mL"}
{"compound": "CCOc1nc2ccc(OCCC3CCN(c4cc(C)cnn4)CC3)cc2o1", "cells": "MRC-5", "strain": "Serotype 14", "result": "0.166 µg/mL"}
{"compound": "CSc1nsc(-c2ccc(OCCOc3ccc(C#N)cc3)cc2)c1C#N", "cells": "HELA-OHIO", "strain": "Serotype 86 (group A)", "result": ">2 µM"}
{"compound": "Cc1c(-c2ccccc2)n(-c2cccc(F)c2)c2ccc(C(C)C)cc2c1=O", "cells": "HELA-OHIO", "strain": "3 (FEB)", "result": ">1 µg/mL"}
{"compound": "CN(C)c1ccc(Cc2ccc(S(C)(=O)=O)cn2)cc1", "cells": "HeLa", "strain": "TYPE 64", "result": ">10 µg/mL"}
{"compound": "CCOC(=O)c1ccc(OCCC2CCN(c3ccc(C)nn3)CC2)cc1", "cells": "WI-38", "strain": "Serotype 36", "result": "<0.1 µg/mL"}
{"compound": "CCOC(=O)c1ccc(OCCCOc2ccc(-c3snc(SC)c3C#N)cc2)cc1", "cells": "HELA-OHIO", "strain": "Serotype 59 (group B)", "result": ">2 µM"}
{"compound": "CSc1nsc(-c2ccc(OCc3ccccc3)cc2)c1C#N", "cells": "HELA-OHIO", "strain": "Serotype 86 (group A)", "result": "2 µM"}
{"compound": "CCOc1nc2ccc(OCCC3CCN(c4ccc(Cl)nn4)CC3)cc2o1", "cells": "MRC-5", "strain": "Serotype 2", "result": "0.004 µg/mL"}
{"compound": "CCc1ccc(CCCOc2cc(C)c(-c3noc(C(F)(F)F)n3)c(C)c2)nn1", "cells": "HeLa", "strain": "serotypes 3 4 5 9 16 18 38 66 75 67", "result": "0.515 µg/mL"}
{"compound": "COc1ccc(-c2snc(SC)c2C#N)cc1", "cells": "HELA-OHIO", "strain": "Serotype 14 (group A)", "result": ">12 µM"}
{"compound": "Cc1cc(OCCCc2ccc(C(C)F)nn2)cc(C)c1-c1noc(C(F)F)n1", "cells": "HeLa", "strain": "serotypes 3 4 5 9 16 18 38 66 75 67", "result": "0.02 µg/mL"}
{"compound": "COC(=O)c1cc(CCCOc2c(C)cc(-c3noc(C)n3)cc2C)on1", "cells": "HeLa", "strain": "Serotype 25", "result": "0.019 µg/mL"}
{"compound": "CCn1c2c(c(=O)c3cc(C(C)C)ccc31)Cc1ccccc1-2", "cells": "HELA-OHIO", "strain": "16/11757", "result": "2.3 µg/mL"}
{"compound": "Cc1ccc(Cc2ccc(S(C)(=O)=O)cn2)cc1", "cells": "HeLa", "strain": "TYPE 64", "result": "5 µg/mL"}
{"compound": "CS(=O)(=O)c1ccc(Oc2ccc(C(=O)c3ccccc3)cc2)nc1", "cells": "HeLa", "strain": "TYPE 8", "result": ">10 µg/mL"}

ECn: concentration that inhibits the pathogen or its effect by n%.